Source: paper PMC10572922
For some assays here: Negatives hold for the conditions tested. For some assays here: The exact form of at least one protein or probe is not confirmed.

Tests used:
Assay in all cases: EMSA
[1] = system: PdhR (MBP-PdhR) (Plesiomonas shigelloides); settings: PdhR: 50 ng probe, 20 mM Tris-HCl pH 7.5, 100 mM KCl, 10 mM MgCl2, 5% glycerol, 2 mM DTT, 37 C 30 min, ArcA: 100 mM Tris-HCl pH 7.5, 10 mM MgCl2, 2 mM DTT, recombinant protein, residues 1-258, protein details: MBP (pMAL-c5X), probe letters rebuilt from the primers and the genome
[2] = system: ArcA-P (phosphorylated ArcA) (Plesiomonas shigelloides); settings: phosphorylated, PdhR: 50 ng probe, 20 mM Tris-HCl pH 7.5, 100 mM KCl, 10 mM MgCl2, 5% glycerol, 2 mM DTT, 37 C 30 min, ArcA: 100 mM Tris-HCl pH 7.5, 10 mM MgCl2, 2 mM DTT, recombinant protein, residues 1-238, protein details: His6 (pET-28a), probe letters rebuilt from the primers and the genome
[3] = system: CRP (MBP-CRP) (Plesiomonas shigelloides); settings: cAMP 0.5 uM, PdhR: 50 ng probe, 20 mM Tris-HCl pH 7.5, 100 mM KCl, 10 mM MgCl2, 5% glycerol, 2 mM DTT, 37 C 30 min, ArcA: 100 mM Tris-HCl pH 7.5, 10 mM MgCl2, 2 mM DTT, recombinant protein, residues 1-210, protein details: MBP (pMAL-c5X), probe letters rebuilt from the primers and the genome
[4] = system: FNR (Plesiomonas shigelloides); settings: PdhR: 50 ng probe, 20 mM Tris-HCl pH 7.5, 100 mM KCl, 10 mM MgCl2, 5% glycerol, 2 mM DTT, 37 C 30 min, ArcA: 100 mM Tris-HCl pH 7.5, 10 mM MgCl2, 2 mM DTT, recombinant protein, residues 1-249, protein details: His6 (pET-28a), probe letters rebuilt from the primers and the genome

“AAAGTTGCTTAATTGGTTGCATAATTATTTTGTTTTTTGTCACAAAAAAAGAGTTTTTCCGGTATCTGCGCAGGTTATTAACGCGAAAATGAAATATCTCGTGTGGATAAAAAGTAGGCGAATGAGATTTCTGATGTATATAATTGCGTCAATAATGTGACGGCTGGTGTTGCTTAATGTGTCAAAAATCGCGAAGATAGCCTCGATTTCATAGTGATGAGATCCGCTTCTGAAACTTATTGCGATTTTACAAATTATTGCGTGTTACAAATTAAAGGGAGAGCTTGTTATCACTCTTGTTTAAGAGCTCGAAGCAAGCAGTTATGGAGGGGAGC (double strand) [tfoX promoter]”: no binding [1].

“ACCAAGCAAAATCACCCACCGGCAGTAAATCGACACCCGCCTCTTTTTGCAATGCCCAGTGACGCGCTCGTAATTGTTGACCACATGCCAATAATGCAGCCTGCTCAATCTCACCGGCCCAATACTGCTCTAATGCTTTTTTCAGCTCGCGATGCAATCCAATACGCGGAAATCCGAGGGTATGACTATGAATACTCATGCTTAACTCCATTTAGCCGTCCAGATGTTTACACATCTATAATTCACGGTTATGGTAAAACCAACAAACGGAAGTTATTCATGTGCATCATGAGCGAAATTCATGATGAGCCTTATTTGGTCAGGGA (double strand) [metR promoter]”: binds [1].

“GCATGCTCCTATGACACAGCGCATTCATGAGGGAAATATAGCCACCAAATTCCGGTTAACACTGTATTACTATTGTTCACCGTTTATCACGGTTCTGCGACCAAGTGTTGCTGATGTGCTGAGTATGCAAAATCAGCGTTAAATGGTAATACCCCGAAAGAGGTGACTAGCGGGTAACCTTGCGCAAGATCAATTCTTGGCACGGATTTTACGTGACCTAGATCTCTGAATCACAACAGAAAATTGGGGCGAAGCACGCCGCTTTTGTCTGACATATTAGCAAGACCAAGTGGGCTAAAATGCACGTTCAACCGCGTGTTGAAACACGGCACGTTGAAAGAGTGCGCTT (double strand) [napF promoter]”: no binding [1].

“GCGCCACGATTTTACAACCTTGTTAAAATCTCGCAAACAATGTTGCACCCGTTGTGCCTTATTCGTCGGTGCGGTCACAGCTTAAGCCGAAACCGCACCGGATCTGTCTTACATCACCAGACGGCGGATGTCAGACAGCGCGTTGTTCAGGAATGTGATGAAGCGGGCACCGTCAGCGCCATCGATCACGCGGTGATCGTAAGACAGTGACAGAGGCAGCATCAGACGTGGTGCGAACTCTTTGCCGTTCCACTTCGGCTTCATCTCAGACTTGGACACACCCAGAATGGCCACTTCCGGCGCATTCACAATTGGAGT (double strand) [lpdA (lpd) promoter]”: binds [2]; no binding [3]; no binding [4]. “GCGCCACGATTTTACAACCTTGTTAAAATCTCGCAAACAATGTTGCACCCGTTGTGCCTTATTCGTCGGTGCGGTCACAGCTTAAGCCGAAACCGCACCGGATCTGTCTTACATCACCAGACGGCGGATGTCAGACAGCGCGTTGTTCAGGAATGTGATGAAGCGGGCACCGTCAGCGCCATCGATCACGCGGTGATCGTAAGACAGTGACAGAGGCAGCATCAGACGTGGTGCGAACTCTTTGCCGTTCCACTTCGGCTTCATCTCAGACTTGGACACACCCAGAATGGCCACTTCCGGCGCATTCACAATTGGAGT (double strand) [lpdA (lpd) promoter]”: no binding [1].

“TTGGGATCAATTTCGCCGACTGTCAATTGGTATTACCAATTTTACGGTGCGATAAAAATTACCAGAATCCCCAAAATGTGTCCAGACGAAAATTGATCTGAATCATGTTATACCGCCAATGGTAACAAAAACGCTTCAGCTAACATAACATTTGTCATACTTAAATTGGTCAGACCATTTAACGTTTGTCGTTTTAAACGCTTCGCTAAAGCTGTAACGAGTCAGCTTTATAACTGGCGGGAATAATCGGCCTTATTAGCGCGAAACTCGTATTTTTGGCTTATCGCGCTCAGGGAATTGACCTCCCGATCACGTACATAACCGCAGCACAAACCGTACATTCGCTGCTCAAATGTCACCTTTAGCGGGGA (double strand) [pdhR promoter]”: binds [2]; no binding [3]; no binding [4]. “TTGGGATCAATTTCGCCGACTGTCAATTGGTATTACCAATTTTACGGTGCGATAAAAATTACCAGAATCCCCAAAATGTGTCCAGACGAAAATTGATCTGAATCATGTTATACCGCCAATGGTAACAAAAACGCTTCAGCTAACATAACATTTGTCATACTTAAATTGGTCAGACCATTTAACGTTTGTCGTTTTAAACGCTTCGCTAAAGCTGTAACGAGTCAGCTTTATAACTGGCGGGAATAATCGGCCTTATTAGCGCGAAACTCGTATTTTTGGCTTATCGCGCTCAGGGAATTGACCTCCCGATCACGTACATAACCGCAGCACAAACCGTACATTCGCTGCTCAAATGTCACCTTTAGCGGGGA (double strand) [pdhR promoter]”: binds [1].
